From patent US20130274352A1, “Oral Drug Devices and Drug Formulations” (The Regents of the University of California, priority 2009, published 2013)

Test system: Caco-2 cells
Experiment: Overall potential (OP = EP − TP)
Assay type: cell-based, human
Settings: for OP: single CPE

Molecule	OP (Conc. 1%)	OP (Conc. 0.01%)	concentration of maximum in OP (14 discrete concentrations, FIG. 2D) [%]
O=C1CCCCCN1 [CL, Caprolactam]	0.48		
CCCCCCCCCCCC(=O)N(C)CC(=O)[O-].[Na+] [NLS, N-Lauryl sarcosinate]		0.51	
CCCCCCCCCCCCOS(=O)(=O)[O-].[Na+] [SLS, Sodium lauryl sulfate]		0.70	
Sodium laureth sulfate [SLA]		0.59	0.02
